Results of single-concentration screens

Mtb glucose medium: 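Whole-cell growth test on Mycobacterium tuberculosis, read after 3 days in glucose-containing 7H9 medium; the read-out is not stated. Tested at 500 µM. Direction is inferred from retests: higher values go with more growth inhibition. Of about 18,000 compounds tested this way, about 1,400 (7.9%) reached 50% or more in at least one test.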
Mtb cholesterol medium: 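Phenotypic screen: M. tuberculosis growth, cholesterol and DPPC medium, 4 days; the read-out is not stated. Compounds at 500 µM. Direction is inferred from retests: higher values go with more growth inhibition. About 18,000 compounds were tested under these conditions; 5% (about 900) showed 50% or more at least once.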

Results are given as percent effect.
The controls that fix the scale are not given in the record; negative values are as filed.
Many other results are left out here, so strong results are more common than in the screen.
A dash means the value is not listed here; it may have been measured.

structure	Mtb glucose medium	Mtb cholesterol medium
CCNC(=O)CN1CCCC(c2nccn2CC)C1 (stereo not given)	-	-7.684
CCc1cnccc1C(=O)NCCc1cncn1C	-1.208	-
CN(Cc1nc(N)nc(N(C)C)n1)CC1CCCO1 (stereo not given)	16.94	-
CC1CCCN(c2nc(C(=O)N3CCOCC3)cs2)C1 (stereo not given)	64.78	-
Cc1ccc(C(=O)N(C)C(C)CN)cc1C (stereo not given)	10.24	-
CSc1ccc(CC(=O)NCCN2CCCC2=O)cc1	-	8.76
N#CCc1ccc(CN)cc1	78.68	74.95
CCCS(=O)(=O)NCC(O)C1CCCC1 (stereo not given)	51.04	-
O=C(CC1CCNC1)N1CCC(c2ncc[nH]2)CC1 (stereo not given)	-0.5045	-
Nc1nc(-c2ccco2)nn1C(=O)c1cccs1	-	-4.8
CCCn1nc(C(=O)N2CCC2)c2ccccc2c1=O	26.44	-
NCC(=O)Nc1ccc(-n2cccn2)cc1	-	18.11
CCc1nccn1CC(=O)NCCCc1csc(N)n1	-	2.662
Cc1ccc(C(=O)N2CCCN(C)CC2)nc1	-	-4.819
O=C(Nc1cc(Cl)ccn1)C1CC1	-	30.7
CCCn1cnnc1CNC(=O)Cn1nc(C)cc1N	4.623	-
O=C(Nc1cccnc1N1CCC(CO)CC1)C1CC1	56.91	34.4
CC(Oc1ccc(S(C)(=O)=O)cc1)C(=O)N(C)C (stereo not given)	-6.093	-
CN(C)c1noc(C2CCCN2)n1 (stereo not given)	-4.582	-
CCOC(=O)c1ccccc1N1C(=O)C=CC1=O	105.7	111.7
N#CC1COCCN1Cc1ccc2ncccc2c1 (stereo not given)	-25.4	-
CN(CC1CCOCC1)C(=O)NCc1ccco1	54.87	-
O=C(Cn1ccc2ccccc21)N1CCCC1	56.53	57.81
Cc1nnc(SCCCNC(=O)CC2COCCN2)s1 (stereo not given)	-10.53	-
CCC[C@H]1CN(C(=O)c2ccc(CO)o2)C[C@@H]1N(C)C	9.3	-
CCC(NC(=O)CCSC)c1ncnn1C (stereo not given)	-8.58	-
NCCc1cccc2cc[nH]c12	83.96	99.27
COCCNC(=O)CN1CCC(C)CC1	0.5368	-
Cc1ccoc1C(=O)N(C)Cc1nc(C(C)C)no1	63.43	56.35
O=C(CSc1ccncc1)N1CCCC2(CCOC2)C1 (stereo not given)	-	2.948
CN(C)CCO[C@@H]1COCC[C@H]1NC(=O)C1CC=CC1	-	1.153
CC(=O)Nc1ccc(C(=O)N(C)Cc2cccs2)cc1	82.8	96.25
CC(C)CN1CCC(Nc2ccc3nnnn3n2)CC1	-	-6.087
O=C(Oc1nsnc1N1CCCCC1)N1CCOCC1	61.6	62.67
CC1(COC(=O)c2cccnc2)CCCO1 (stereo not given)	5.267	-3.848
CNCCCC(=O)Nc1cccc2c1OCCO2	13.97	-
CCNC(=O)c1csc(N2CCCC(C)C2)n1 (stereo not given)	46.68	-
COc1cccc(CN2CCNCC2)c1OC	15.23	-
O=C(C1CCC1)N1CCN(S(=O)(=O)c2cccs2)CC1	18.91	-
COCCn1cnnc1SCC(=O)NCC(F)(F)F	10.39	-
COCc1csc(CO)c1	-	3.589
COc1ccc(OCCCN2CCNC(=O)CC2)cc1	17.41	10.98
COc1cc(CN2CCNCC2)cc(OC)c1	32.94	15.12
Cc1ccc(CNc2nnnn2CCO)cc1	21.23	6.192
CC(C(N)=O)S(=O)(=O)c1ncccc1Cl (stereo not given)	5.009	-3.892
CCn1cc(CN)cn1	-	-13.88
CCCC1SCCN1C(=O)c1c[nH]c(=O)cc1C (stereo not given)	-	-0.2783
COC(=O)c1oc(CSc2cnn[nH]2)cc1C	36.84	35.79
Cc1noc(C)c1S(=O)(=O)NCCc1ccccn1	-4.857	-
CCCc1cc(CN(C)C(=O)c2nc(C)c[nH]2)n[nH]1	41.79	13.76
CCn1cc(NC(=O)c2ccc(C)n2C)cn1	30.17	-
c1nnc(C2CCNCC2)o1	7.588	-
COc1ccc(S(=O)(=O)Nc2cccc(CN)c2)cc1	75.24	53.17
CN1C(=O)Cc2ccccc2C1C(=O)N1CCCC1 (stereo not given)	-3.574	-
CC(O)c1ncc[nH]1 (stereo not given)	4.097	-
COCCN1CCN(Cc2cccn2C)CC1=O	-	-3.53
C=C(C)CNC(=O)NCCc1cnn(C)c1	7.97	-
COCCc1noc(C2CNC2)n1	99.82	92.28
COc1ccc(OC)c(CN(C)CCN(C)C)c1	-	-13.85
N#Cc1ccc(OCCOCCn2cncn2)cc1	10.43	-

The last 5 entries again:

* COCCN1CCN(Cc2cccn2C)CC1=O : Mtb cholesterol medium: -3.53%
* C=C(C)CNC(=O)NCCc1cnn(C)c1 : Mtb glucose medium: 7.97%
* COCCc1noc(C2CNC2)n1 : Mtb glucose medium: 99.82%; Mtb cholesterol medium: 92.28%
* COc1ccc(OC)c(CN(C)CCN(C)C)c1 : Mtb cholesterol medium: -13.85%
* N#Cc1ccc(OCCOCCn2cncn2)cc1 : Mtb glucose medium: 10.43%

From ChEMBL document CHEMBL3988442, “University of Dundee, Small-Polar-MMV Screening Library” (2021).